The entries are a selection whose mix differs from that of the whole data set. Measured potencies and affinities stand elsewhere. Active and inactive are the calls of the source. No stated cut-off is given here; in the data, active means inhibition above about 13%; inconclusive means no clear call, values can overlap the other calls; inactive means below that.
Biological target: Bifunctional protein GlmU (Mycobacterium tuberculosis (strain ATCC 25618 / H37Rv)) (UniProt P9WMN3)
Test: inhibition of mycobacterial GlmU enzyme – biochemical, glucosamine-1-phosphate acetyltransferase (AID 1376);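 further: 0% = complete reaction with vehicle and 100% = reaction without substrate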
Conditions: M. tuberculosis GlmU acetyltransferase enzyme assay; hits give high values;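 tested at 30 µM in the primary screen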

The chains behind the UniProt entries cited, without tags or fusion partners.
UniProt P9WMN3, whole entry: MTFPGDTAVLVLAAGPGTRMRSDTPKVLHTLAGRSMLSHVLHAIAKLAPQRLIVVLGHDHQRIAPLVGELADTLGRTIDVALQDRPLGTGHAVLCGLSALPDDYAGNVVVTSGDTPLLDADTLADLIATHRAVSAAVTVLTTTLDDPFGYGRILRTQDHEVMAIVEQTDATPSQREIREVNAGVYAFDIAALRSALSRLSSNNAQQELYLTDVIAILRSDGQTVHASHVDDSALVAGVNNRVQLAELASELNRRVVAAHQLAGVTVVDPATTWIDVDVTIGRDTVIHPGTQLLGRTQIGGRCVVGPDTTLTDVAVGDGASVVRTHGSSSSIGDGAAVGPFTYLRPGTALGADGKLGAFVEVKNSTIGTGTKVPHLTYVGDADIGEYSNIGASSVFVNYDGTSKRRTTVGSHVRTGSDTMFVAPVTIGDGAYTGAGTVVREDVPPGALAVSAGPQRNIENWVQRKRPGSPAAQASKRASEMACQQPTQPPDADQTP

Q: How did the inhibition turn out when `c1ccc(CN2CCC(Nc3ccccc3)CC2)cc1` was run?
A: inactive: 0.85%

Q: `N#Cc1ccc(C(=O)NCC2(N3CCCCC3)CCCCC2)cc1` was tested. Which inhibition did it give?
A: inactive: -2.12%

Q: For `O=C(OC1CN2CCC1CC2)C1c2ccccc2C=Cc2ccccc21` (centres undefined), which inhibition is on record?
A: inactive: -0.19%

Q: With `COc1ccc(C(=O)NCC2(N3CCOCC3)CCCCC2)cc1OC` as the molecule, how does the inhibition read?
A: inactive: -1.09%

Q: How did the inhibition turn out when `CCCOc1ccc(C)cc1CN(CCCl)CCCl` was run?
A: inactive: 1.62%

Q: With `CCC(CO)(C(=O)OC1CN2CCC1CC2)c1ccccc1` (centres undefined) as the molecule, how does the inhibition read?
A: inactive: -1.42%

Q: How did the inhibition turn out when `COc1cc(OC)cc(C(=O)NCC2(N3CCOCC3)CCCCC2)c1` was run?
A: inactive: 2.25%

Q: `CC(C)(C)OC(=O)N1CCC(Nc2ccccc2)CC1` was tested. Which inhibition did it give?
A: inactive: 7.79%

Q: Which inhibition does the source give for `CCOc1ncccc1C(=O)NCC1(N2CCOCC2)CCCCC1` here?
A: inactive: -0.04%

Q: With `CN(C)c1ccc(C(=O)NCC2(N3CCCCC3)CCCCC2)cc1` as the molecule, how does the inhibition read?
A: inactive: -3.28%

Q: Which inhibition does the source give for `CCN1CCC(Nc2cccc(F)c2)CC1` here?
A: inactive: 0.07%

Q: With `Fc1ccccc1NC1CCN(Cc2ccccc2)CC1` as the molecule, how does the inhibition read?
A: inactive: -5.64%

Q: `Cc1ccc(OCC(C)C)c(CN(CCCl)CCCl)c1` was tested. Which inhibition did it give?
A: inactive: -4.9%

Q: For `COc1ccc(NC2CCN(CCc3ccccc3)CC2)c(OC)c1`, which inhibition is on record?
A: inactive: -2.48%

Q: Which inhibition does the source give for `CCOc1ccc(C)cc1CN(CCCl)CCCl` here?
A: inactive: -1.99%

Q: With `CCOC(=O)N1CCC(Nc2ccc(OC)cc2)CC1` as the molecule, how does the inhibition read?
A: inactive: -2.94%

Q: For `O=C(OC1CN2CCC1CC2)C1c2ccccc2Oc2ccccc21` (centres undefined), which inhibition is on record?
A: inactive: -0.04%

Q: How did the inhibition turn out when `N#CC1(Nc2ccccc2)CCN(Cc2ccccc2)CC1` was run?
A: inactive: -0.06%

Q: `O=C(NCC1(N2CCOCC2)CCCCC1)c1cc2ccccc2o1` was tested. Which inhibition did it give?
A: inactive: 1.96%

Q: `COc1ccc(C(=O)NCC2(N3CCCCC3)CCCCC2)c(OC)c1OC` was tested. Which inhibition did it give?
A: inactive: 0.12%

Q: `CN1CCC(Nc2cccc(F)c2)CC1` was tested. Which inhibition did it give?
A: inactive: -6.22%

Q: With `CN(C)c1cccc(C(=O)NCC2(N3CCCCC3)CCCCC2)c1` as the molecule, how does the inhibition read?
A: inactive: -2.28%

Q: With `COc1ccc(CN(CCCl)CCCl)cc1Cl` as the molecule, how does the inhibition read?
A: inactive: -0.11%

Q: How did the inhibition turn out when `CC(C)c1ccc(NC2CCN(C(=O)OC(C)(C)C)CC2)cc1` was run?
A: inactive: 3.89%

Q: With `CN1CCN(CCOC(=O)C(O)(c2ccccc2)c2ccccc2)CC1` as the molecule, how does the inhibition read?
A: inactive: -1.3%

Q: How did the inhibition turn out when `COc1ccc(NC2CCN(C(=O)OC(C)(C)C)CC2)cc1` was run?
A: inactive: -7.38%

Q: With `O=C(NCC1(N2CCOCC2)CCCCC1)c1cc(=O)[nH]c2ccccc12` as the molecule, how does the inhibition read?
A: inactive: -1.72%

Q: `O=C(NCC1(N2CCCCC2)CCCCC1)c1cccc([N+](=O)[O-])c1` was tested. Which inhibition did it give?
A: inactive: 1.56%

Q: `N#CC1(Nc2ccccc2)CCN(CCc2ccccc2)CC1` was tested. Which inhibition did it give?
A: inactive: -3.79%

From PubChem BioAssay AID1376 (SRMLSC, 2008)
